Source: the supplement of paper PMC9931576
Human monoclonal antibodies against the spike receptor-binding domain (heavy:light variable regions). IC50 against pseudoviruses bearing the spike of naturally observed variants; lower = stronger; >10 µg/ml means not reached at the top dose. No active / inactive call. The stated detection limit is 0.0005 µg/ml; values near or below 0.001 µg/ml lie at the floor of the assay.

B1: BD57-0327 (protein)
chain 1: QVQLVESGGGVVQPGRSLRLSCAASGFTFSNFDMHWVRQAPGKGLQWVAVISSGGNNKYYEDSVKARFTLSRDNAKNTLDLQMNSLRVEDTAVYFCAKEVRISDSSFMPDGFDLWGQGTLVTVSS
chain 2: SYVLTQAPSVSVAPGKTARITCGGDSIGSKNVHWYQQKPGQAPVLVITYDNDRPSGIPERFSGSNSGNTATLTISGVEAGDEADYYCQVWDIGVVFGGGTTLTVL
B2: BD57-0328 (protein)
chain 1: QVQLVESGGGVVQPGRSLTLSCAASGFSFSSFAMHWVRQAPGKGLEWVAHISYDGSNKFYADSVKGRLTISRDNSKNTLFLQMKSLRVEDTAVYFCAKEQSQADSTAFYSPGFDYWGQGSLVTVSS
chain 2: SYVLTQPPSVSVAPGKTARITCGETNIGTKSVHWYQQKPGQAPVLVIYYDSDRPSGIPERFSGSNSGNTATLTISRVEAGDEADYYCQVWEVGPVFGTGTKVTVL
B3: BD57-0333 (protein)
chain 1: QVQLVQSGAEVRKPGSSVKVSCKASGGIFSNRYGISWVRQAPGQGLEWMGGIIAAFGTTNYAQKSQGRVTISADESTSTVYMEMSSLRSEDTAVYYCASGPPTYYDSWSGYSFDYWGQGTLVTVSS
chain 2: EIVLTQSPGTLSLSPGERVTLSCRASQIVNSDFLAWYQQKPGQAPRLLMYGTSSRATGIPDRFSGSGSGTDFTLTISRLEPEDFAVYYCQQYGSSPYTFGQGTKLDIK
B4: BD57-0341 (protein)
chain 1: QVHLQESGPGLVKPSETLSLTCSVSGGSIRSSYWSWIRQPPGQGLEWIGIMYFSGSTNYNPSLKSRVTISGDTSKNHLSLRLTSVTAADTAVYYCVTSGPNMNTPGGVIADDAFHIWGQGTMVIVSS
chain 2: DIQMTQSPSSLSASVGDRVTITCRASQTINNYLNWYQQKPGKAPKLLIYAASSLQSGVPSRFSASGSGTDFTLSVSSLQPEDFATYFCQQSFTMPWTFGQGTTVDIK
B5: BD57-0348 (protein)
chain 1: QVQLVQSGAEVKKPGASVMVSCKASGNTFTNYYMHWVRQAPGQGLEWMGIINPSGGSTTYAQKFQGRVTMTGDTSTSTVYMDLSSLRSEDTAVYYCARGGIVPDARTAFDIWGQGTMVTVSS
chain 2: DIQMTQSPSTLSASVGDRVTITCRASQSISRWLAWYQQKPGKAPKLLIYKASSLESGVPSRFSGSGSGTEFTLTISSLQPDDFATYYCQHYNLYSTFGQGTKVEIK
B6: BD57-0356 (protein)
chain 1: QVQLVQSGAEVKKPGSSVKVSCKISGGIFVNYAVSWVRQAPGQGLQWVGGLIPILRTTDYTQKFQGRVTITADDSMTTTYMELSSLTSEDTAVYYCATGVRYCSGTTCYTAYLQDWGQGTPVTVSS
chain 2: EIVLTQSPGTLSLSPGERATLSCRASQSLSNSYLAWYQQKPGRAPRLLLYGTSTRAPGIPDRFSGSGSGTDFTLTISGLEPEDFAVYYCQQYGSSPRTFGQGTAVEFK
B7: BD57-0362 (protein)
chain 1: EVLLVESGGGLVKPGGSLRLSCAASGLAFSSYSINWVRQAPGKGLEWVSSISSTGSSIYYADSVKGRFTISRDNAKNSLYLQMNSLRAEDTAVYYCARDQGNLYGSGRGAFGYWGQGTLVTVSS
chain 2: QSALTQPASVSGSPGQSITISCTGTTSDIGSYTFVSWYQQHPGKAPQLIIYDVSDRPSGVSNRFSGSKSGNTASLTISGLQAEDEADYYCGSYTGSSLLFGGGTKLTVL
B8: BD57-0366 (protein)
chain 1: QVQLVQSGAEVKKPGSSVKVSCKASGGTFRNYAISWVRQAPGQGLEWMGGIMPMYHTSEYAEKFQGRVTFMADESTSTAYMELSSLRSEDTAVYYCARDLGHSYGRPSYYYYIDVWGKGTTVTVSS
chain 2: QAVVTQEPSLTVSPGGTVTLTCGSSTGAVTSGHYPSWFQQKPGQAPRTLIYDTYNKHSWTPARFSGSLLGGKAALTLSGAQPEDEADYYCFFSYVGGRPGVFGGGTKLTVL
B9: BD57-0368 (protein)
chain 1: QVQLVQSGAEVKKPGASVKVSCKASGYSFTSHYMHWVRQAPGQGLEWMGLINPSGGTTSYTQKFRGRVSMTRDTSTGTVFLELSSLRSDDTAVYYCARDGGSCSSDRCDPADWFDPWGQGTLVTVSS
chain 2: SYVLTQPPSVSVAPGQTARITCGGDDIGSKSVHWYQQKPGQAPVLVIYYDTDRPSGIPERFSGSNSGSTATLTISRAEAGDEADYYCQVWDGSSDHHYVFGTGTKVTVL
B10: BD57-0376 (protein)
chain 1: EVQLVESGGGLVQPGRSLRLSCAASGFTFDDYAMHWVRQAPGKGLEWVSGISWDSGIIAYADSVKGRFTISRDNAKNSLYLQMNSLRAEDTAFYYCAKGEKQQLINDPLDYWGQGTLVTVSS
chain 2: SYVLTQPPSVSVAPGKTARITCGGDSIGSKNVHWYQQKPGQAPVLVIYYDSDRPSGIPERFSGSNSGNTATLTISRVEAGDEADYYCQVWDPHVVFGGGTKLTVL
B11: BD57-0377 (protein)
chain 1: EVQLVESGGGLVQPGGSLRLSCAASGFTFSSYDMHWVRQGTGKGLEWVSAIGTTGYRYYPDSVKGRFTISRENAKNSVHLQMNSLRAGDTAVYYCARVGYDGSGFYSYFDLWGQGTLVTVSS
chain 2: DIQMTQSPSSLSASVGDRVTITCRASQTIGGYLNWYQQKPGKAPKLLIYAASRLQSGVPSRFSGSGSGTDFTLTISSLQPEDFATYTCQQSYSTSALTFGGGTKVEIK
B12: BD57-0385 (protein)
chain 1: QMQLVQSGPEMKKPGTSMKVSCKASVFTFDTSSVQWVRQARGQRLEWIGWIVLGSGYTDYAQEFQERVTITRDMSTSTVYMELNRLRSEDTAVYYCAAPYCNRTTCRDGFDLWGQGTMVTVSS
chain 2: EIVLTQSPGTLSLSPGKRATLSCRARQSVSRSLLAWYQQKPGQAPRLLIYGASSRATGIPDRFSGSGSGTDFTLTISRLEPEDFAVYYCQQYGTSPWTFGQGTKVEIK

target: SARS-CoV-2 Omicron BA.1 spike pseudovirus; test: pseudovirus neutralization IC50; higher = weaker neutralization
Procedure: (§1)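 Single-round VSV luciferase pseudovirus mixed with antibody dilutions for 1 h and put on Huh-7 cells for about a day; IC50 from the dose curve.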

| Binder | pseudovirus neutralization IC50 [µg/mL] |
| --- | --- |
| B1 | 7.83 |
| B2 | 1.81 |
| B3 | 3.4 |
| B4 | 0.0164 |
| B5 | > 10 |
| B6 | 0.0621 |
| B7 | > 10 |
| B8 | 0.0189 |
| B9 | 2.74 |
| B10 | > 10 |
| B11 | > 10 |
| B12 | 0.00626 |

target: SARS-CoV-2 Omicron BA.2 spike pseudovirus; test: as above
Procedure: as §1

| Binder | pseudovirus neutralization IC50 [µg/mL] |
| --- | --- |
| B1 | 5.66 |
| B2 | 2.43 |
| B3 | 3.42 |
| B4 | 0.0233 |
| B5 | > 10 |
| B6 | 0.00378 |
| B7 | > 10 |
| B8 | 0.0191 |
| B9 | 3.4 |
| B10 | > 10 |
| B11 | > 10 |
| B12 | 0.00429 |

target: SARS-CoV-2 Omicron BA.2.75 spike pseudovirus; test: as above
Procedure: as §1

| Binder | pseudovirus neutralization IC50 [µg/mL] |
| --- | --- |
| B1 | 3.22 |
| B2 | 2.9 |
| B3 | 4.97 |
| B4 | 0.0149 |
| B5 | > 10 |
| B6 | 0.00237 |
| B7 | > 10 |
| B8 | 0.0577 |
| B9 | 5.51 |
| B10 | > 10 |
| B11 | > 10 |
| B12 | 0.00645 |

target: SARS-CoV-2 Omicron BA.5 spike pseudovirus; test: as above
Procedure: as §1

| Binder | pseudovirus neutralization IC50 [µg/mL] |
| --- | --- |
| B1 | > 10 |
| B2 | 3.48 |
| B3 | 4.78 |
| B4 | 0.0127 |
| B5 | > 10 |
| B6 | 0.646 |
| B7 | > 10 |
| B8 | 0.0077 |
| B9 | 5.57 |
| B10 | > 10 |
| B11 | > 10 |
| B12 | 9.71 |

target: SARS-CoV-2 Omicron BQ.1.1 spike pseudovirus; test: as above
Procedure: as §1

| Binder | pseudovirus neutralization IC50 [µg/mL] |
| --- | --- |
| B1 | > 10 |
| B2 | > 10 |
| B3 | > 10 |
| B4 | > 10 |
| B5 | > 10 |
| B6 | > 10 |
| B7 | > 10 |
| B8 | > 10 |
| B9 | > 10 |
| B10 | > 10 |
| B11 | > 10 |
| B12 | > 10 |

target: SARS-CoV-2 Omicron XBB spike pseudovirus; test: as above
Procedure: as §1

| Binder | pseudovirus neutralization IC50 [µg/mL] |
| --- | --- |
| B1 | > 10 |
| B2 | > 10 |
| B3 | 3.72 |
| B4 | > 10 |
| B5 | > 10 |
| B6 | > 10 |
| B7 | > 10 |
| B8 | > 10 |
| B9 | 5.18 |
| B10 | > 10 |
| B11 | > 10 |
| B12 | > 10 |

target: SARS-CoV-2 early D614G spike pseudovirus; test: as above
Procedure: as §1

| Binder | pseudovirus neutralization IC50 [µg/mL] |
| --- | --- |
| B1 | > 10 |
| B2 | 3.23 |
| B3 | 3.45 |
| B4 | 0.00629 |
| B5 | > 10 |
| B6 | 0.000868 |
| B7 | > 10 |
| B8 | 0.0111 |
| B9 | 7.56 |
| B10 | 3.17 |
| B11 | > 10 |
| B12 | 0.00357 |
